Test system: Plasmodium falciparum
Assay: GSK_TCMDC: Inhibition of Plasmodium falciparum 3D7 in whole erythrocytes, using parasite LDH activity as an index of growth.

CCN1CCCC(OC(=O)C(O)(c2ccc3c(c2)OCO3)c2ccc3c(c2)OCO3)C1 (stereo unspecified)
XC50: 0.785 µM
